# Results: PubChem BioAssay AID1979 (Broad Institute, 2009)
# Only a part is listed here, and it is no random draw. Calls of active or inactive are those of the source.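 How the source made its calls: active means growth inhibition above about 58% in most replicates (limit read from the data, passing the limit was not always enough); inconclusive means exactly half the replicates above a set limit; inactive means most replicates below a set limit.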
# Test: C. albicans growth inhibition with fluconazole, primary screen, CaCi-2 strain, Alamar Blue fluorescence (AID 1979);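 further: all wells also contain fluconazole at 8 µg/ml as a sub-toxic cotreatment; 0% = median of DMSO wells and 100% = median of geldanamycin control wells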
# Settings: C. albicans CaCi-2 (fluconazole-resistant clinical isolate) + fluconazole, 48 h, stronger effect = higher value, concentration not given here
row,SMILES,growth inhibition
1,COc1ccc(C(=O)NCC2(N3CCCCC3)CCCCC2)cc1,inactive: 2.5%
2,COc1ccc(C(=O)NCC2(N3CCCCC3)CCCCC2)c(OC)c1OC,inactive: -17.7%
3,CC(C)(C)OC(=O)N1CCC(N(C(=O)c2ccccc2)c2ccc(F)cc2)CC1,inactive: -2.45%
4,O=C(NCC1(N2CCCCC2)CCCCC1)c1ccc(=O)[nH]c1,inactive: 2.16%
5,O=C(NCC1(N2CCCCC2)CCCCC1)c1cccs1,inactive: -4.89%
6,CSc1ccccc1C(=O)NCC1(N2CCCCC2)CCCCC1,inactive: -14.5%
7,O=C(NCC1(N2CCCCC2)CCCCC1)c1ccc(Cl)nc1,inactive: 2.64%
8,Cc1cc(C)cc(N(C(=O)c2ccccc2)C2CCN(C(=O)OC(C)(C)C)CC2)c1,inactive: -4.35%
9,O=C(NCC1(N2CCOCC2)CCCCC1)c1cc2ccccc2o1,inactive: -0.052%
10,N#CC1(Nc2ccccc2)CCN(Cc2ccccc2)CC1,inactive: 17.1%
11,O=C(OC1CN2CCC1CC2)C1c2ccccc2Oc2ccccc21 (configuration not stated),inactive: -38.5%
12,CCOC(=O)N1CCC(Nc2ccc(OC)cc2)CC1,inactive: -19.6%
13,CCOc1ccc(C)cc1CN(CCCl)CCCl,inactive: -9.01%
14,O=C(NCC1(N2CCCCC2)CCCCC1)c1ccc(F)cc1,inactive: -4.13%
15,COc1ccc(NC2CCN(CCc3ccccc3)CC2)c(OC)c1,inactive: -43.1%
16,CCOC(=O)N1CCC(Nc2ccc(F)cc2)CC1,inactive: -38.8%
17,CCOC(=O)N1CCC(Nc2cccc(C)c2)CC1,inactive: -6.8%
18,COc1cc(C(=O)NCC2(N(C)C)CCCCC2)ccc1OC(F)F,inactive: -0.536%
19,Cc1ccc(OCC(C)C)c(CN(CCCl)CCCl)c1,inactive: -19.7%

row,SMILES,growth inhibition
1,O=C(NCC1(N2CCCCC2)CCCCC1)c1ccc(OC(F)F)cc1,inactive: 4.19%
2,CCN1CCC(Nc2ccc(Cl)cc2)CC1,inactive: -2.18%
3,N#CC1(Nc2ccccc2)CCN(CCc2ccccc2)CC1,inactive: -2.47%
4,O=C(NCC1(N2CCCCC2)CCCCC1)c1cccc([N+](=O)[O-])c1,inactive: -2.92%
5,O=C(NCC1(N2CCCCC2)CCCCC1)c1cccc(C(F)(F)F)c1,inactive: -7.92%
6,COc1cc(C(=O)NCC2(N3CCCCC3)CCCCC2)ccc1OC(F)F,inactive: 3.19%
7,O=C(NCC1(N2CCOCC2)CCCCC1)c1cc(=O)[nH]c2ccccc12,inactive: -12.8%
8,CN1CCN(CCOC(=O)C(O)(c2ccccc2)c2ccccc2)CC1,inactive: 0.996%
9,COc1ccc(NC2CCN(C(=O)OC(C)(C)C)CC2)cc1,inactive: 1.16%
10,CC(C)c1ccc(NC2CCN(C(=O)OC(C)(C)C)CC2)cc1,inactive: -40.6%
11,COc1ccc(CN(CCCl)CCCl)cc1Cl,inactive: 5.23%
12,CN(C)c1cccc(C(=O)NCC2(N3CCCCC3)CCCCC2)c1,inactive: -3.42%
13,COc1cc(OC)c(C(=O)NCC2(N(C)C)CCCCC2)cc1OC,inactive: -3.08%
14,CN1CCC(Nc2cccc(F)c2)CC1,inactive: 34.8%
15,CCCOc1ccc(C(=O)NCC2(N(C)C)CCCCC2)cc1OC,inactive: -6.75%
16,COc1ccc(C(=O)NCC2(N3CCOCC3)CCCCC2)cc1OC,inactive: 13.3%
17,CCOC(=O)N1CCC(Nc2ccc(C)cc2)CC1,inactive: -12.5%
18,N/C(=N\O)c1c(N)no[n+]1[O-],inactive: 0.263%
19,CCc1cc(C(=O)NCC2(N3CCCCC3)CCCCC2)sc1C,inactive: -1.24%

row,SMILES,growth inhibition
1,O=C(OC1CN2CCC1CC2)C1c2ccccc2C=Cc2ccccc21 (configuration not stated),inactive: -2.12%
2,N#Cc1ccc(C(=O)NCC2(N3CCCCC3)CCCCC2)cc1,inactive: -10.5%
3,CC(C)(C)OC(=O)N1CCC(N(C(=O)c2ccccc2)c2ccc(Cl)cc2)CC1,inactive: 5.87%
4,c1ccc(CN2CCC(Nc3ccccc3)CC2)cc1,inactive: -0.439%
5,CCCN1CCC(Nc2cc(OC)cc(OC)c2)CC1,inactive: 6.07%
6,COc1cc(OC)cc(C(=O)NCC2(N3CCCCC3)CCCCC2)c1,inactive: -8.69%
7,Cc1ccc(C(=O)NCC2(N3CCCCC3)CCCCC2)o1,inactive: -9.98%
8,CCN1CCC(Nc2cccc(F)c2)CC1,inactive: -14.3%
9,CN(C)c1ccc(C(=O)NCC2(N3CCCCC3)CCCCC2)cc1,inactive: 3.4%
10,CCOc1ncccc1C(=O)NCC1(N2CCOCC2)CCCCC1,inactive: -4.87%
11,CN1CCC(Nc2ccc(F)c(Cl)c2)CC1,inactive: -0.0204%
12,CC(C)(C)OC(=O)N1CCC(Nc2ccccc2)CC1,inactive: -9.95%
13,O=C(O)C1(Nc2ccccc2)CCN(Cc2ccccc2)CC1,inactive: -2.06%
14,CCCOc1ccc(C(=O)NCC2(N(C)C)CCCCC2)cc1,inactive: 0.0428%
15,COc1cc(OC)cc(C(=O)NCC2(N3CCOCC3)CCCCC2)c1,inactive: -3.34%
16,COc1cccc(C(=O)N(c2cc(C)cc(C)c2)C2CCN(C(=O)OC(C)(C)C)CC2)c1,inactive: -0.455%
17,CCC(CO)(C(=O)OC1CN2CCC1CC2)c1ccccc1 (configuration not stated),inactive: 5.5%
18,CN1CCC(Nc2ccc(Cl)cc2)CC1,inactive: -4.65%
19,CCCOc1ccc(C)cc1CN(CCCl)CCCl,inactive: -6.98%
